Experimental data published in the supplement of paper PMC9931576.
Human monoclonal antibodies against the spike receptor-binding domain (heavy:light variable regions). IC50 against pseudoviruses bearing the spike of naturally observed variants; lower = stronger; >10 µg/ml means not reached at the top dose. No active / inactive call. The stated detection limit is 0.0005 µg/ml; values near or below 0.001 µg/ml lie at the floor of the assay.

How the values were obtained:
Assay in all cases: pseudovirus neutralization IC50; higher = weaker neutralization
[1] = target: SARS-CoV-2 Omicron BA.1 spike pseudovirus
Protocol: (§1)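 Single-round VSV luciferase pseudovirus mixed with antibody dilutions for 1 h and put on Huh-7 cells for about a day; IC50 from the dose curve.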

[2] = target: SARS-CoV-2 Omicron BA.2 spike pseudovirus
Protocol: as §1

[3] = target: SARS-CoV-2 Omicron BA.2.75 spike pseudovirus
Protocol: as §1

[4] = target: SARS-CoV-2 Omicron BA.5 spike pseudovirus
Protocol: as §1

[5] = target: SARS-CoV-2 Omicron BQ.1.1 spike pseudovirus
Protocol: as §1

[6] = target: SARS-CoV-2 Omicron XBB spike pseudovirus
Protocol: as §1

[7] = target: SARS-CoV-2 early D614G spike pseudovirus
Protocol: as §1

Measured: pseudovirus neutralization IC50

B1: BD55-6268 (protein)
chain 1: EVQLVESGGGLVQPGRSLRLSCAASGFTFGEYAMHWVRQAPGKGLEWVAGITWKSGSVGYADSAKGRFTISRDDAKNSLYLQMNSLKAEDTAFYHCAKDDCSSTNCQFYYYYMDVWGRGTTVTVSS
chain 2: QSVLTQPPSVSGAPGQRVTISCTGSSSNIGAGYDVHWYQQVPGTVPKILIYGNTNRPSGVPDRFSGSRSGTSASLAIAGLQAEDEADYYCQSFDSSLSGHVVFGGGTKLTVL
> 10 µg/mL: all assays above

B2: BD55-6270 (protein)
chain 1: QVQLVQSGAEVKKPGASVRVSCKASGYTFSSYDINWVRQATGQGLEWMGWMNPNSGNTGYAHKFQGRVTMTGNTSISTAYMELSGLSSEDTAVYYCGRGLSVVKYYYYAMDVWGPGTTVTVSS
chain 2: DIQMTQSLSSLSASVGDRVTITCRASQSISTYLNWYQQQPGKVPKLLIYAASSLQSGVPSRFSGSGSGTDFTLTISSLQPEDFATYYCQQSYSFPGTFGQGTKVEIK
> 10 µg/mL: all assays above

B3: BD55-6271 (protein)
chain 1: QVLLVQSGAEVRKPGASVRLSCKASGYSVGTYALHWVRQAPGQGLEWMGWINSGNDYTRYSQNFQGRVTISRDTSANTAYMELNSLKSQDTALYYCAREGSDWHAIYFDLWGQGSLVTVSS
chain 2: DIQMTQSPSSLSASVGDRVTITCRASQNVNNYLNWYQKKPGLAPKLLIYAASILQSGVPSRFSGSGSGTAFSLTITNLQPEDFATYYCQQSYETPPITFGQGTRLDIK
> 10 µg/mL: all assays above

B4: BD55-6273 (protein)
chain 1: QVQLVQSGAEVRKPGASVKVSCKASGYTFTSSEINWVRQAAGQGLEWLGWVNPSNGNTDYAHKFQGRVTMTRDTSTNTAYMELRSLTSEDTAVYYCAREKTDMSKYYYYDMDVWGQGTTVTVSS
chain 2: DIQMTQSPSSLSASVGDRVTITCRASQSITYYLNWYQQKPEKAPKLLIFEASSLQSGVPSRFSGSGSGTDFTLTITSLQPEDFATYYCQQSYTFPSTFGQGTKVEIK
> 10 µg/mL: all assays above

B5: BD55-6279 (protein)
chain 1: QVQLVESGGGVVQPGRSLRLSCAVSGFTFSSYGMHWVRQAPGKGLEWVAVISYDGSNKYYADSVKGRFTISRDDSKNTLYLQMNSLRSEDTAVYYCVKELAVSGYYYYYYMDVWGKGTTVTVSS
chain 2: DIVMTQSPDSLAVSLGERATINCKSSQSVLYGSNNKNSLAWFQQKPGQPPKVLIYWASSRESGVPDRFSGSGSGTDFTLTISNLQAEDVAVYYCQQYYSIPITFGQGTRLEIK
> 10 µg/mL: all assays above

B6: BD55-6280 (protein)
chain 1: EVQLLESGGGLIQPGGSLRLSCAASGFTFSNYAMSWVRQAPGKGLEWVSDISGSGRSPDYADSVKGRFTISRDNSKNTLYLLMNSLRAEDTAVYYCVKDPFPTYYYDKSRFDSWGQGTLVTVSS
chain 2: DVVMTQSPLSLPVTLGQPASISCRSSQSLVYSDGITYLSWFQQRPGHSPRRLIYKVSNRDSGVPDRFSGSGSGTDFTLKISRVEAEDVGMYYCMQSTNWPPAFGGGTKVEIK
> 10 µg/mL: all assays above
